{"source": "PubChem BioAssay AID565", "about": "(University of Pittsburgh Molecular Library Screening Center, 2006)", "note": "This is a selection; strong and weak results do not stand in their true shares. Calls of active or inactive are those of the source. Rule as the data show it: active = inhibition above about 50%; inactive = the rest."}
{"molecular_target": "Gag-Pol polyprotein (Human immunodeficiency virus type 1 group M subtype B (isolate HXB2)) (UniProt P04585)", "assay": "blockers of HIV-1 RNase H RNA/DNA cleavage – biochemical, fluorescence, primary screen (AID 565)", "conditions": "RT-RNase H RNA/DNA duplex cleavage, at 10 µM, active compounds read high"}
{"compound": "COc1ccc(NC2CCN(CCc3ccccc3)CC2)c(OC)c1", "inhibition": "inactive: 6.09%"}
{"compound": "O=C(OC1CN2CCC1CC2)C1c2ccccc2Oc2ccccc21", "note": "(configuration not stated)", "inhibition": "inactive: 13%"}
{"compound": "N#CC1(Nc2ccccc2)CCN(CCc2ccccc2)CC1", "inhibition": "inactive: -10.5%"}
{"compound": "N/C(=N\\O)c1c(N)no[n+]1[O-]", "inhibition": "inactive: -4.02%"}
{"compound": "CCC(CO)(C(=O)OC1CN2CCC1CC2)c1ccccc1", "note": "(configuration not stated)", "inhibition": "inactive: -10.8%"}
{"compound": "CCOc1ncccc1C(=O)NCC1(N2CCOCC2)CCCCC1", "inhibition": "inactive: -11.8%"}
{"compound": "Fc1ccccc1NC1CCN(Cc2ccccc2)CC1", "inhibition": "inactive: -2.32%"}
